Measurements: patent US20050202423A1, “Method for identifying compounds or lead structures against rna target motifs and rna/protein interactions” (priority 2000, published 2005)

Chains of the proteins cited; added tags and fusions are not shown.
UniProt P04618, whole entry: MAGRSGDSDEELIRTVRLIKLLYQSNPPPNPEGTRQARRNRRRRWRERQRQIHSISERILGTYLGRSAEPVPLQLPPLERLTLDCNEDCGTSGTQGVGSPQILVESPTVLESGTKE

What was measured:
[1] = target: Rev protein (HIV-1, UniProt P04618 P04618:1-116); test: SPR; printed as Kp; details: tags: full-length
[2] = target: Rev protein (HIV-1, UniProt P04618 P04618:1-116); test: SPR; printed as Kp; details: tags: full-length; label: biotin (SPR surface) or 5'-32P (filter); hammerhead ribozyme

| Binder | Kd [1] [nM] | Kd [2] [nM] |
| --- | --- | --- |
| AIR (aptamer-inhibited ribozyme) (ssRNA) RNA: GGGACUCGCUUCGGCUUGAGAUACCAAAAAGGGUCCUCUGAUGAGGCCGUUAGGCCGAAACUCGU | 1.3 |  |
| RRR (Rev-responsive ribozyme, RBE in stem II) (ssRNA) RNA: GGGUCCUCUGAUGAGCUCUGGGCGCAGCUUCGGCUGACGGUACUUGCGAAACUCGU |  | 1.4 |
